PubChem BioAssay AID504761 – Drosophila RNAi Screening Center | 2011
Purpose: 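Insect host genes that dengue virus relies on to spread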 (primary screen). Cell system: D.Mel-2 cells from Drosophila. Reagent: long dsRNA against Drosophila genes. Treatment: infection with dengue virus type 2; dose and infection time not stated. Read-out: 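Cells stained for dengue envelope protein and imaged; percent of infected cells per well on duplicate plates, ranked by infection, with stained nuclei counted for cell number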. Direction: infection score: higher = more virus-infected cells; cell count: higher = more cells in the well. Rule for the call: 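Low infection ranks in the two replicates (chance level up to 0.065) followed by a retest with a 1.5-fold or larger significant decrease, p below 0.05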. Calls: active = confirmed: knock-down lowers infection; inactive = not picked or not confirmed.
In all, the deposit lists about 22,000 reagents; shown is an unselected part of those that have a named target and a result. In the full data, 116 (0.52%) were called active. 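Calls depend on retest data that are not deposited; infection was ranked per plate without normalising between plates; the unit of the infection score is not given.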 The raw values are shown without normalisation. No sequences are given here. Not stated in the record: the amount of reagent, the time to read-out.

no.	target	DRSC id	infection score, replicate 1	infection score, replicate 2	cell count, replicate 1	cell count, replicate 2	Call
1	CCT1	DRSC16877	11.7	3.23	1860	1422	inactive
2	CCT1	DRSC26661	2.5	14.6	6168	5806	inactive
3	CG7333	DRSC16229	2.74	4.13	6632	6313	inactive
4	b6	DRSC18740	8.84	5.31	2274	6258	inactive
5	b6	DRSC24064	5.39	6.6	5953	6117	inactive
6	Hs3st-A	DRSC06508	1.83	1.31	6082	6394	inactive
7	Hs3st-A	DRSC06509	3.45	4.29	6437	5870	inactive
8	Hs3st-A	DRSC30014	12.4	15.5	6625	6339	inactive
9	SH3PX1	DRSC11139	4.83	4.77	5048	4991	inactive
10	Parp16	DRSC06597	10.1	18.5	6384	6431	inactive
11	Parp16	DRSC27048	3.65	4.76	6217	6216	inactive
12	CG12853	DRSC06193	1.67	4.84	6402	6494	inactive
13	CG12853	DRSC27193	17.5	31.9	6171	6123	inactive
14	Marc	DRSC06614	11.9	3.6	6430	7232	inactive
15	CG13898	DRSC08368	2.99	1.39	6114	6276	inactive
16	CG5767	DRSC06953	2.99	29.5	6752	5668	inactive
17	CG5767	DRSC29980	19.6	10.4	6001	6031	inactive
18	pdm3	DRSC06076	6.17	13.2	6304	6278	inactive
19	pdm3	DRSC23181	1.43	4.46	5870	6161	inactive
20	pdm3	DRSC27184	27.2	16.1	6193	1472	inactive
21	pdm3	DRSC29989	23	7.56	5893	6003	inactive
22	Aatf	DRSC02131	14.8	8.85	4877	5749	inactive
23	Aatf	DRSC29405		1.1	354	546	inactive
